The exact form of at least one protein or probe is not confirmed.

The test system of the data set is SSBXoc (single-stranded DNA-binding protein) (Xanthomonas oryzae pv. oryzicola RS105). In words: EMSA. The settings on record: recombinant protein, protein details: GST tag removed by thrombin (pET41a(+)), label: 3' biotin. (A gel shift assay detects complexes by their altered migration in electrophoresis.)

Turning to AATAGCCCATCATCACCAGAAG [DNA2], the binding result was “binds”.

For TTCGCGCGTACAAGCACAATTTCGCG [DNA1], the binding result is “binds”.

Values taken from paper PMC3571957.
